Pooled drug test results. Numbers come from NIAID ChemDB, via PubChem.

Common to all: enzyme or target tests; agent: HIV-1; protein: Reverse transcriptase; read by: RT activity / absorbance; endpoint: IC50

Neighbouring rows are from separate reports.

| SMILES | value |
|---|---|
| O=C1c2ccccc2C(=O)c2c1ccc1[nH]c(CNCCCCCCCCN3[C@@H](CO)[C@@H](O)[C@H](O)[C@@H]3CO)nc21 | 36.31 µM |
| O=C1CS[C@H]2[C@H](O)[C@@H](O)[C@H](O)[C@H](O)CN12 | 4.49 µM |
| O=C1c2ccccc2C(=O)c2c1ccc1[nH]c([C@H]3O[C@H](CO)[C@H](O)[C@H]3O)nc21 | 8.51 µM |
| CS(=O)(=O)c1ccc(NC(=O)Cn2ccc(C(F)(F)F)c(Oc3cc(Cl)cc(C#N)c3)c2=O)cc1 | 5.2 µM |
| O=C1CS[C@@H]2[C@@H](O)[C@@H](O)[C@H](O)[C@H](O)CN12 | 28.09 µM |
| COc1ccccc1CC(=O)Nc1nc(-c2ccccc2)cs1 | 18.8 µM |
| Cc1nc(N2C(=O)CSC2c2c(Cl)cccc2Cl)nc(C)c1C | 1.02 µM |
| Cc1ccccc1CC(=O)Nc1nc(-c2ccccc2)cs1 | 69.3 µM |
| CCc1c(C)nc(N2C(=O)CSC2CO)nc1C | 3.06 µM |
| CO[C@H]1O[C@H](C2=NO[C@@H](C[C@H]3O[C@H](CO)[C@@H](O)[C@H](O)[C@@H]3O)C2)[C@@H](O)[C@H](O)[C@H]1O | >50 µM |
| O=C1c2ccccc2S[C@@H]2[C@H](O)[C@@H](O)[C@@H](O)[C@H](O)CN12 | 5.51 µM |
| CCOC(=O)C1SCC(=O)N1c1nc(C)c(C)c(C)n1 | 9.87 µM |
| CC1(C)O[C@H]2O[C@H](C3=NO[C@H](C[C@H]4O[C@H](CO)[C@@H](O)[C@H](O)[C@@H]4O)C3)[C@H](O)[C@H]2O1 | 9.61 µM |
| O=C1CSC(c2c(Cl)cccc2Cl)N1CCO | >100 µM |
| CO[C@H]1O[C@H](C2=NO[C@H](C[C@H]3O[C@H](CO)[C@@H](O)[C@H](O)[C@@H]3O)C2)[C@@H](O)[C@H](O)[C@H]1O | >50 µM |
| O=C(O)CN1C(=O)CSC1c1c(Cl)cccc1Cl | >100 µM |
| CCCCCCCCCCCCCCCC#CCCCCCCCC(=O)O | >1000 µM |
| CCOC(=O)C1SCC(=O)N1c1nc(C)c(CC)c(C)n1 | 3.02 µM |
| O=C1c2ccccc2C(=O)c2c1ccc1[nH]c(CNCCCCCCN3[C@@H](CO)[C@@H](O)[C@H](O)[C@@H]3CO)nc21 | 31.12 µM |
| CC1(C)O[C@@H]2[C@H](O1)[C@H](O)O[C@@H]2C1=NO[C@H](C[C@H]2O[C@H](CO)[C@H](O)[C@H](O)[C@H]2O)C1 | 4.64 µM |
| Cc1nc(N2C(=O)CSC2CO)nc(C)c1C | 4.48 µM |

ICn: concentration for n% inhibition.